Measured values from several laboratories, pooled; numbers as filed in NIAID ChemDB.

All rows: tests in culture; agent: Mycobacterium tuberculosis

Neighbouring rows are from separate reports. MIC bound: limit read from a one-dose screen. ECn is the concentration giving n% inhibition of infection, replication or growth. Fold resistance: result on the changed form divided by that on wild type. Zone: diameter of growth inhibition. A number after MIC or MFC names an inhibition level or a share of isolates. Percent inhibition refers to the dose given; in toxicity tests it is the harm to the cells. Blank or dashed fields: not listed here.

compound | strain or isolate | changes | method | conditions | read-out | tested at | value
O=C(Nc1sc(-c2ccc(OCc3c(Cl)cccc3Cl)cc2)cc1C(=O)O)c1cccc(Cl)c1 | H37Rv | - | resazurin | - | EC50 | - | 89.78 µM
O=C(N/N=C/c1ccccc1)c1cnccn1 | ATCC 27294 | - | resazurin | - | MIC | - | >100 µg/mL
CC(=O)N1C/C(=N\NC(N)=S)c2ccccc21 | H37Rv | - | broth dilution | - | MIC | - | 0.2 µg/mL
CC(C)=CCC[C@H](C)C1CC[C@@H](C)c2c(O)cc(C)c([N+](=O)[O-])c21 | H37Rv | - | resazurin | - | MIC | - | 47.2 µM
COc1ccccc1N1CCN(Cc2cc(C)n(NC(=O)c3cnccn3)c2-c2ccccc2)CC1 | 27294 | - | - | - | MIC | - | >16 µg/mL
CC1CCCN(C(=S)S)C1.CC1CCCNC1 | KM-R | - | - | - | MIC | - | 1.6 µg/mL
CC(C)=CCC[C@H](C)C1CC[C@@H](C)c2c1cc(C)c(Br)c2O | H37Rv | - | resazurin | - | MIC | - | >200 µM
CCCCn1c2ccccc2c2c(C)c3cnccc3c(C)c21 | H37Rv | - | resazurin | - | inhibition | 6.25 µg/mL | 97%
Cc1c(CN2CCN(Cc3ccc4c(c3)OCO4)CC2)cc(-c2ccccc2)n1NC(=O)c1cnccn1 | 27294 | - | - | - | MIC | - | >16 µg/mL
Cc1n[nH]c(=S)n1/N=C/c1ccc(Br)cc1F | H37Rv | - | agar diffusion / visual reading | - | zone | 10000 µg/mL | 9 mm
O=C(Nc1sc(-c2ccc(OCc3c(Cl)cccc3Cl)cc2)cc1C(=O)O)c1ccco1 | H37Rv | - | resazurin | - | EC50 | - | 91.73 µM
Cc1n[nH]c(=S)n1/N=C/c1cc(F)ccc1F | H37Rv | - | agar diffusion / visual reading | - | zone | 10000 µg/mL | 13.5 mm
COc1ccc2c(c1)-c1c3c(cc4ccnc(c14)C2=O)OCO3 | H37Rv | - | BACTEC | - | inhibition | 12.5 µg/mL | 99%
CCc1nc2ccc(C)cc2n1CCCCSc1ccc(Cl)cc1 | H37Rv | WT | turbidity / fluorescence | - | MIC90 | - | 16 µM
O=C(CN1CCN(c2ccccc2)CC1)n1nnc2ccccc21 | H37Rv | - | resazurin | - | MIC bound | - | >6.25 µg/mL
Cc1ccc(CS/C(N)=N/N=C/c2ccccc2)cc1 | H37Rv | - | broth dilution | 21 d | MIC | - | 62.5 µM
Cc1ccc2[nH]c(C(=O)O)c(/C=N\NC(N)=S)c2c1 | H37Rv | - | broth dilution | - | MIC | - | 0.2 µg/mL
CC1C(=O)OCN1C(=O)OCc1ccccc1 | H37Rv | - | BACTEC | - | MIC bound | - | >12.5 µg/mL
O=C(N/N=C/c1ccc([N+](=O)[O-])o1)c1cnccn1 | ATCC 27294 | - | resazurin | - | MIC | - | 3.12 µg/mL
CC(C)Cc1nc(-c2cc3ccccc3[nH]2)c(CC(C)C)nc1-c1cc2ccccc2[nH]1 | H37Rv | - | resazurin | - | MIC bound | - | >6.25 µg/mL
NC(=S)N/N=C\c1c(C(=O)O)[nH]c2ccc(Cl)cc12 | H37Rv | - | broth dilution | - | MIC | - | 0.2 µg/mL
CNC(=[SH+])[N-]/N=C(\C)c1ccccn1.[Cl][Cu] | H37Rv | - | BACTEC | - | MIC | - | 6.25 µg/mL
N/C(=N\N=C\c1ccccc1)SCc1cccc(Cl)c1 | H37Rv | - | broth dilution | 21 d | MIC | - | 62.5 µM
CSC(=S)N/N=C(\C)c1ccc(OCc2ccc(F)cc2F)cc1 | H37Rv | - | resazurin / absorbance | - | MIC | - | >100 µM
C=C(OC/C(C)=C/CC[C@H](C)C1CC[C@@H](C)c2c(O)cc(C)cc21)c1ccncn1 | H37Rv | - | resazurin | - | MIC | - | >200 µM
CC1=CC[C@]2(C)CC(=O)[C@]3(C)C(=O)C=C(C(C)C)[C@@H]3[C@H]2CC1 | H37Rv | - | resazurin | - | EC50 | - | >6.25 µg/mL
C/C(=C\CC[C@H](C)C1CC[C@@H](C)c2c(O)cc(C)cc21)C1CC(=O)C=CO1 | H37Rv | - | resazurin | - | MIC | - | >200 µM
COc1ccc(C(=O)Cc2nc3nnc(NC(=O)Nc4ccc(Cl)cc4)n3[nH]c2=O)cc1 | H37Rv | - | BACTEC | - | inhibition | 12.5 µg/mL | 10%
N/C(=N\N=C\c1ccccc1)SCc1ccc(Br)cc1 | H37Rv | - | broth dilution | 14 d | MIC | - | 16 µM
Cc1n[nH]c(=S)n1/N=C/c1ccc(F)c(F)c1F | H37Rv | - | agar diffusion / visual reading | - | zone | 10000 µg/mL | 13 mm
CC(C)=CCC[C@H](C)C1CC[C@@H](C)c2c(OC3C(CO)OC(O)C(O)C3O)cc(C)cc21 | H37Rv | - | resazurin | - | MIC | - | >200 µM
N/C(=N\N=C\c1cc(Cl)ccc1O)SCc1ccccc1 | H37Rv | - | broth dilution | 14 d | MIC | - | 16 µM
C[C@@H]1CN(c2c(F)c(N)c3c(=O)c(C(=O)O)cn(C4CC4)c3c2F)C[C@H](C)N1 | 2 isolates | - | - | - | MIC | - | 0.1 µg/mL
CC(C)=C[C@@H]1C[C@H](C)C2CC[C@@H](C)c3c(O)cc(C)c1c32 | H37Rv | - | resazurin | - | MIC | - | 55.1 µM
CC(C)CNc1sc(-c2ccc(OCc3c(Cl)cccc3Cl)cc2)cc1C(=O)O | H37Rv | - | resazurin | - | EC50 | - | 34.5 µM
Cc1cc(=O)oc2cc3occ(C=C4C(=O)NC(=S)NC4=O)c(=O)c3cc12 | H37Rv | - | resazurin | - | EC90 | - | >100 µg/mL
N/C(=N\N=C\c1ccccc1O)SCc1ccc(Cl)cc1 | H37Rv | - | broth dilution | 21 d | MIC | - | 16 µM
CCc1nc2ccc(C)cc2n1CCCCSc1ccccc1 | H37Rv | - | turbidity / fluorescence | - | MIC99 | - | 0.22 µM
NNC(=O)c1cc(I)c(N)c(I)c1 | H37Rv | - | BACTEC | - | MIC | - | ≥12.5 µg/mL
CCc1nc2ccccc2n1CCCCSc1nnc(-c2ccc(Cl)cc2)o1 | H37Rv | WT | turbidity / fluorescence | - | MIC90 | - | 0.15 µM
O=C(Nc1sc(-c2ccc(OCc3c(Cl)cccc3Cl)cc2)cc1C(=O)O)c1ccccn1 | H37Rv | - | resazurin | - | MIC | - | 59.2 µM
CN1C[C@H](C(=O)N[C@]2(C)O[C@@]3(O)[C@@H]4CCCN4C(=O)[C@H](Cc4ccccc4)N3C2=O)C=C2c3cccc4[nH]cc(c34)C[C@H]21 | H37Rv | - | BACTEC | - | MIC | - | ≥12.5 µg/mL
CC1COc2c(N3CCN(C)CC3)c(F)cc3c(=O)c(C(=O)O)cn1c23 | 25 strains | - | - | - | MIC50 | - | 0.78 µg/mL
NNC(=O)CNc1cccc(Br)c1 | H37Rv | - | BACTEC | - | MIC | - | ≥12.5 µg/mL
Cc1n[nH]c(=S)n1/N=C/c1ccc(Cl)c(F)c1 | H37Rv | - | agar diffusion / visual reading | - | zone | 10000 µg/mL | 13.5 mm
CCCCCCCCCC(=O)N[C@H]1[C@H](Oc2c3cc4cc2Oc2ccc(cc2Cl)[C@@H](O[C@@H]2O[C@H](CO)[C@@H](O)[C@H](O)[C@H]2NC(C)=O)[C@@H]2NC(=O)[C@H](NC(=O)[C@@H]4NC(=O)[C@H]4NC(=O)[C@@H](Cc5ccc(c(Cl)c5)O3)NC(=O)[C@H](N)c3ccc(O)c(c3)Oc3cc(O)cc4c3)c3ccc(O)c(c3)-c3c(O[C@H]4O[C@H](CO)[C@@H](O)[C@H](O)[C@@H]4O)cc(O)cc3[C@H](C(=O)O)NC2=O)O[C@H](CO)[C@@H](O)[C@@H]1O | L1913 | - | - | - | MIC | - | >64 µg/mL
CCCCCCCCO[C@H]1O[C@H](CO[C@H]2O[C@H](CO)[C@@H](O)[C@@H]2O)[C@@H](O)[C@@H]1O | H37Ra | - | - | - | MIC | - | >128 µg/mL
COc1ccc(C(=O)c2oc3cc4occ(C=C5C(=O)NC(=S)NC5=O)c(=O)c4cc3c2C)cc1 | H37Rv | - | resazurin | - | EC90 | - | >100 µg/mL
Cc1cc2nc3c(=O)[nH]c(=O)nc-3n(CC(O)C(O)C(O)CO)c2cc1C.OB(O)O | H37Rv | - | BACTEC | - | inhibition | 12.5 µg/mL | -2%
CC1=CC[C@]2(C)CC[C@]3(C)C(=O)C=C(C(C)C)[C@@H]3[C@H]2CC1 | H37Rv | - | resazurin | - | inhibition | 6.25 µg/mL | 25%
NNC(=O)c1cc2ccccc2[nH]1 | H37Rv | - | BACTEC | - | MIC bound | - | >12.5 µg/mL
C[C@]1(COc2ccc(N3CCC(Oc4ccc(OC(F)(F)F)cc4)CC3)cc2)Cn2cc([N+](=O)[O-])nc2O1 | H37Rv (SM-resistant) | - | - | - | MIC | - | 0.012 µg/mL
COS(=O)(=O)[O-].COc1cc2c(cc1OC)C1CCN3C(=O)CCC3[N+]1(C)CC2 | H37Rv | - | BACTEC | - | MIC bound | - | >12.5 µg/mL
C=C(C)/C=C/[C@]12C[C@H](C)C3CC[C@](C)(NC=O)[C@@H](CC[C@H]1C)[C@@H]32 | H37Rv | - | resazurin | - | MIC100 | - | 32 µg/mL
CC1COc2c(N3CCN(C)CC3)c(F)cc3c(=O)c(C(=O)O)cn1c23 | 9 isolates (RMP INH-S) | - | - | - | MIC50 | - | 1 µg/mL
C[C@H]1[C@H](C)CC[C@]2(C(=O)O)CC[C@]3(C)C(CC[C@@H]4[C@@]5(C)C[C@H](O)CC(C)(C)[C@@H]5CC[C@]43C)[C@H]12 | EMB-R (ATCC 35837) | - | resazurin | - | MIC | - | 25 µg/mL
O=c1cc(-c2ccccc2)nc(-n2[nH]c3c(c2=O)CCCC3)[nH]1 | H37Rv | - | resazurin | - | inhibition | 6.25 µg/mL | 95%
C/C(=C\CC[C@H](C)C1CC[C@@H](C)C2=C1C(=O)C(C)CC2=O)C(=O)O | H37Rv | - | resazurin | - | MIC | - | >200 µM
CCOC(=O)c1cc(-c2ccc(OCc3c(Cl)cccc3Cl)cc2)sc1NC(=O)C(=O)O | H37Rv | - | resazurin | - | MIC | - | 1.9 µM
O=C(N/N=C/c1ccc([N+](=O)[O-])s1)c1cnccn1 | ATCC 27294 | - | resazurin | - | MIC | - | >100 µg/mL
COC(=O)c1cc(-c2ccc(OC)c(OC)c2)oc1-c1ccc(OC)c(OC)c1 | H37Rv | - | BACTEC | - | inhibition | 12.5 µg/mL | 0%
CCCCCCCCO[C@H]1O[C@H](CO[C@H]2O[C@H](COC(=O)c3ccccc3)[C@@H](OC(=O)c3ccccc3)[C@@H]2OC(=O)c2ccccc2)[C@@H](O)[C@@H]1O | H37Ra | - | - | - | MIC | - | >128 µg/mL
CCc1nc2ccc(C)cc2n1CCCCSc1ccc(OC)cc1 | H37Rv | - | turbidity / fluorescence | - | MIC99 | - | 2.3 µM
CCC(CO)n1c(C)c(CN2CCSCC2)c(CO)c1-c1ccccc1 | 27294 | - | - | - | MIC | - | >16 µg/mL
C=Cc1c(C)c2cc3[nH]c(cc4nc(cc5nc(cc1[nH]2)C(C)=C5CCC(=O)OC)C(CCC(=O)OC)=C4C)c(C)c3C=C | H37Rv | - | resazurin | - | MIC bound | - | >6.25 µg/mL
Cc1cc(=O)oc2cc3occ(C=C4C(=O)NC(=O)NC4=O)c(=O)c3cc12 | H37Rv | - | resazurin | - | EC90 | - | >100 µg/mL
O=C(O)c1cc(-c2ccc(OCc3c(Cl)cccc3Cl)cc2)sc1NCc1ccccc1 | H37Rv | - | resazurin | - | MIC | - | 48.2 µM
COc1cccc(CS/C(N)=N/N=C/c2cc(Cl)ccc2O)c1 | H37Rv | - | broth dilution | 21 d | MIC | - | 32 µM
Cc1cc(CN2CCN(C(c3ccccc3)c3ccccc3)CC2)c(-c2ccc(Cl)cc2)n1-c1ccc(F)cc1F | 27294 | - | - | - | MIC | - | >16 µg/mL
O=C(O)c1cn(C2CC2)c2cc(N3CCNCC3)c(F)cc2c1=O | H37Rv | - | agar diffusion / visual reading | - | zone | 10000 µg/mL | 27 mm
CC1(O)CC(c2ccccc2)SC(c2ccccc2)=N1 | H37Rv | - | - | - | EC50 | - | >6.25 µg/mL
C=C(C)/C=C/[C@]12C[C@H](C)C3CC[C@](C)(N)[C@@H](CC[C@H]1C)[C@@H]32 | H37Rv | - | resazurin | - | MIC100 | - | 6 µg/mL
O=C(N/N=C/c1ccccn1)c1cnccn1 | ATCC 27294 | - | resazurin | - | MIC | - | >100 µg/mL
Cc1c(Cc2coc(C(=O)c3occ(Cc4cc(-c5ccc(Cl)cc5)n(-c5ccc(Cl)cc5)c4C)c3N3CCNCC3)c2N2CCNCC2)cc(-c2ccc(Cl)cc2)n1-c1ccc(Cl)cc1 | 27294 | - | - | - | MIC | - | 4 µg/mL
CCNC(=O)c1c2c(nc3ccccc13)-c1ccccc1C(C)(C)C2O | H37Rv | - | BACTEC | - | inhibition | 12.5 µg/mL | 29%
Cc1cc2nc(C(=O)NC[C@H](C)CO)cc(-c3ccccc3F)c2c(C)c1-c1ccncc1 | - | - | fluorescence | - | MIC90 | - | 0.8 µM
CCc1nc2ccccc2n1CCCCNc1ccc(-c2ccccn2)cc1 | H37Rv | QcrB M342T | turbidity / fluorescence | - | fold resistance | - | 40
CCN(CC)CCNc1ccc(COC(=O)NC)c2sc3ccccc3c(=O)c12 | H37Rv | - | BACTEC | - | inhibition | 12.5 µg/mL | 98%
CCc1nc2ccccc2n1CCCCOc1ccc(Cl)cc1C | H37Rv | WT | turbidity / fluorescence | - | MIC90 | - | 13 µM
S=C1C(=Nc2ccccc2)N(c2ccccc2)/C(=N/c2ccccn2)N1c1ccccc1 | H37Rv | - | BACTEC | - | inhibition | 12.5 µg/mL | 41%
O=C(N/N=C/c1ncc[nH]1)c1cnccn1 | ATCC 27294 | - | resazurin | - | MIC | - | 50 µg/mL

Repeating the first 4 entries:

compound,strain or isolate,changes,method,conditions,read-out,tested at,value
O=C(Nc1sc(-c2ccc(OCc3c(Cl)cccc3Cl)cc2)cc1C(=O)O)c1cccc(Cl)c1,H37Rv,-,resazurin,-,EC50,-,89.78 µM
O=C(N/N=C/c1ccccc1)c1cnccn1,ATCC 27294,-,resazurin,-,MIC,-,>100 µg/mL
CC(=O)N1C/C(=N\NC(N)=S)c2ccccc21,H37Rv,-,broth dilution,-,MIC,-,0.2 µg/mL
CC(C)=CCC[C@H](C)C1CC[C@@H](C)c2c(O)cc(C)c([N+](=O)[O-])c21,H37Rv,-,resazurin,-,MIC,-,47.2 µM